Anti-infective test results gathered from many reports (values: NIAID ChemDB through PubChem).

Shared fields: tests in culture; agent: Mycobacterium tuberculosis

MIC bound: limit read from a one-dose screen.

smiles | read by | tested at | strain or isolate | read-out | result
COC(=O)C1=COC(C)C2CN3CCc4c([nH]c5cc(OC)ccc45)C3CC12.ON(O)O | BACTEC | 12.8 µg/mL | H37Rv | inhibition | 8%
CCCN(/C=N/N=C/c1c2c(O)c3c(O)c(C)c4c(c3c1O)C(=O)[C@@](C)(O/C=C/[C@H](OC)[C@@H](C)[C@@H](OC(C)=O)[C@H](C)[C@H](O)[C@H](C)[C@@H](O)[C@@H](C)/C=C/C=C(/C)C(=O)N2)O4)CCC |  |  | H37Rv | MIC | 0.02 µg/mL
C=CCNC(=S)NNC(=O)Cc1csc2nc(-c3ccc(Br)cc3)cn12 |  | 6.25 µg/mL | H37Rv | inhibition | 2%
Nc1cc2nc3ccccc3nc2cc1N | BACTEC | 12.5 µg/mL | H37Rv | inhibition | 89%
CC1=NN(c2ccc(CNC(=O)c3c(C(F)(F)F)nc4ccccn34)cc2)CCN1S(=O)(=O)C(F)(F)F | GFP |  |  | EC50 | 0.013 µM
CC1COc2c(N3CCN(C)CC3)c(F)cc3c(=O)c(C(=O)O)cn1c23 |  |  | 188 strains | MIC50 | 0.25 µg/mL
CC1(C)O[C@@H]1COc1c2occc2cc2ccc(=O)oc12 | BACTEC | 12.5 µg/mL | H37Rv | inhibition | -12%
CCCCNC(=S)NNC(=O)Cc1csc2nc(-c3ccc(Br)cc3)cn12 |  |  | H37Rv | MIC | >6.25 µg/mL
C=CC[N+]12CC=C3COC(=O)C(C)(O)C(C)(O)C(C)C(=O)OC(CC1)C32.[Br-] | BACTEC |  | H37Rv | MIC | ≥12.5 µg/mL
CC[n+]1c(C=Cc2coc3ccc(Cl)cc3c2=O)sc2ccccc21 |  |  | H37Rv | MIC | 125 µM
NC(=S)c1cc(SCc2ccc(Cl)c(Cl)c2)ccn1 |  |  | CNCTC MY331/88 | MIC | 7.94 µM
CO[C@H]1/C=C/O[C@@]2(C)Oc3c(C)c(O)c4c(O)c(c(/C=N/N=C/N(C)C5CCCCC5)c(O)c4c3C2=O)NC(=O)/C(C)=C\C=C\[C@H](C)[C@H](O)[C@@H](C)[C@@H](O)[C@@H](C)[C@H](OC(C)=O)[C@@H]1C |  |  | H37Rv | MIC | 0.01 µg/mL
C=C[C@@]1(C)CC[C@@]2(O)C3=C1C=C(C#N)C(C)(C)c1[nH]c4cccc(c4c13)C2(C)C | resazurin |  | H37Rv | MIC90 | >100 µM
NC[C@H]1O[C@H](O[C@H]2[C@H](O)[C@@H](O[C@H]3O[C@H](CO)[C@@H](O)[C@H](N)[C@H]3O)[C@H](N)C[C@@H]2N)[C@H](O)[C@@H](O)[C@@H]1O | BACTEC | 2.5 µg/mL | 72 strains | inhibition | 50%
CCCCNCc1ccccc1Br |  |  | H37Rv | MIC | 125 µg/mL
O=C(Cc1csc2nc(-c3ccc(Br)cc3)cn12)N/N=C1\SCC(=O)N1c1ccc([N+](=O)[O-])cc1 |  |  | H37Rv | MIC | >6.25 µg/mL
CCCCCCSc1ncnc2ccccc12 |  |  | CNCTC TBC1/47 | MIC | 125 µM
O=C1NC(=S)N/C1=C/c1ccccc1Br | BACTEC | 6.25 µg/mL | H37Rv | inhibition | 26%
C(=N\Nc1ccccn1)/NN/C=N/Nc1ccccn1 | BACTEC |  | H37Rv | MIC | ≥12.5 µg/mL
N#Cc1cc(SCc2ccccc2F)ccn1 |  |  | CNCTC MY331/88 | MIC | 126 µM
COc1ccccc1C1OC(C2=C(C)NC(=O)NC2c2ccccc2F)=NN1C(C)=O | agar / visual reading | 250 µg/mL | H37Rv | inhibition | 39%
COc1ccc(/C=C/c2nc3ccc([N+](=O)[O-])cc3[nH]2)cc1OC | resazurin |  | H37Rv (ATCC 27294) | MIC | >7.25 µg/mL
CO[C@H]1/C=C/O[C@@]2(C)Oc3c(C)c(O)c4c(O)c(cc(O)c4c3C2=O)NC(=O)/C(C)=C\C=C\[C@H](C)[C@H](O)[C@@H](C)[C@@H](O)[C@@H](C)[C@H](OC(C)=O)[C@@H]1C |  |  | Aoyama B | MIC | 12.5 µg/mL
CC1OC1C(=O)C1(O)C(C)C(O)C23OC2(C(O)c2c(O)cccc2C3=O)C1O | BACTEC |  | H37Rv | MIC bound | >12.8 µg/mL
COc1ccc(/C=C2/NC(=S)NC2=O)cc1OC | BACTEC | 6.25 µg/mL | H37Rv | inhibition | 0%
COc1cc(Cl)c(CC(=O)c2c[nH]c3ccccc23)cc1OC | BACTEC |  | H37Rv | MIC bound | >6.25 µg/mL
Fc1cccc(F)c1CNCC1CCCC(CNCc2c(F)cccc2F)C1 |  | 20 µM | H37Rv | inhibition | 0%
Nc1cc(Cl)cc2[nH]c(=O)c3cc(Cl)ccc3c12 | BACTEC |  | H37Rv | MIC bound | ≤12.5 µg/mL
CCCCSc1ncnc2ccccc12 |  |  | CNCTC TBC1/47 | MIC | 63 µM
NC(=S)c1cc(SCc2c(F)cccc2Cl)ccn1 |  |  | CNCTC MY331/88 | MIC | 7.94 µM
[Na+].[O-]N=Nc1nc(-c2ccccn2)nc2ccccc12 | BACTEC |  | H37Rv | MIC | ≥12.5 µg/mL
O=C1NC(=S)N/C1=C/c1ccc2ccccc2c1 | BACTEC | 6.25 µg/mL | H37Rv | inhibition | 53%
CN(C)c1ccc(/C=N/NC(=O)CCSCCC(=O)N/N=C/c2ccc(N(C)C)cc2)cc1 | BACTEC |  | H37Rv | MIC bound | >12.5 µg/mL
CCCCNCc1cccc(Cl)c1 |  |  | H37Rv | MIC | 60 µg/mL
O=C1NC(=S)N/C1=C/c1ccc(Br)cc1 | BACTEC | 6.25 µg/mL | H37Rv | inhibition | 83%
N#Cc1cc(SCc2ccc(F)c(F)c2)ccn1 |  |  | CNCTC MY331/88 | MIC | 126 µM
COc1ccc([C@H]2CC(=O)c3c(OC(C)=O)cc(OC(C)=O)cc3O2)cc1OC(C)=O | BACTEC | 128 µg/mL | H37Rv | inhibition | 80%
C=C[C@]1(C)C2=C3c4c([nH]c5cccc(c45)C(C)(C)[C@H]3C[C@H]1Cl)C(C)(C)C(C#N)=C2 | resazurin |  | H37Rv | MIC90 | 53.7 µM
Oc1cccc(/C=C/c2nc3ccc(Br)cc3[nH]2)c1 | resazurin |  | H37Rv (ATCC 27294) | MIC | >7.25 µg/mL
COc1ccc(OC)c(/C=C2/NC(=S)NC2=O)c1 | BACTEC | 6.25 µg/mL | H37Rv | inhibition | 57%
Brc1ccc2nc(/C=C/c3ccc4c(c3)OCO4)[nH]c2c1 | resazurin |  | H37Rv (ATCC 27294) | MIC | >7.25 µg/mL
N#Cc1cc(SCc2cc([N+](=O)[O-])cc([N+](=O)[O-])c2)ccn1 |  |  | CNCTC MY331/88 | MIC | 15.85 µM
O=c1c(C=Cc2sc3ccccc3[n+]2Cc2ccc([N+](=O)[O-])cc2)coc2ccccc12 |  |  | H37Rv | MIC | >500 µM
NC1[C@H]2CN(c3nc4c(cc3F)c(=O)c(C(=O)O)cn4-c3ccc(F)cc3F)C[C@@H]12 |  |  | 44 isolates (resistant) | MIC50 | 32 µg/mL
C=CCOc1cccc(/C=C2/NC(=S)NC2=O)c1 | BACTEC | 6.25 µg/mL | H37Rv | inhibition | 93%
CCCCCCCCCC(=O)N[C@H]1[C@H](Oc2c3cc4cc2Oc2ccc(cc2Cl)[C@@H](O[C@@H]2O[C@H](CO)[C@@H](O)[C@H](O)[C@H]2NC(C)=O)[C@@H]2NC(=O)[C@H](NC(=O)[C@@H]4NC(=O)[C@H]4NC(=O)[C@@H](Cc5ccc(c(Cl)c5)O3)NC(=O)[C@H](N)c3ccc(O)c(c3)Oc3cc(O)cc4c3)c3ccc(O)c(c3)-c3c(O[C@H]4O[C@H](CO)[C@@H](O)[C@H](O)[C@@H]4O)cc(O)cc3[C@H](C(=O)O)NC2=O)O[C@H](CO)[C@@H](O)[C@@H]1O |  |  | L1901 | MIC | 64 µg/mL
O=C1NC(=S)N/C1=C/c1ccc(Cl)cc1Cl | BACTEC | 6.25 µg/mL | H37Rv | inhibition | 6%
CCC(C)N(/C=N/N=C/c1c2c(O)c3c(O)c(C)c4c(c3c1O)C(=O)[C@@](C)(O/C=C/[C@H](OC)[C@@H](C)[C@@H](OC(C)=O)[C@H](C)[C@H](O)[C@H](C)[C@@H](O)[C@@H](C)/C=C/C=C(/C)C(=O)N2)O4)C(C)CC |  |  | H37Rv | MIC | 0.04 µg/mL
O=C1NC(=S)N/C1=C/c1ccc(F)cc1 | BACTEC |  | H37Rv | EC50 | <6.25 µg/mL
O=C1C(=O)c2ccccc2C(O)=C1CCCc1ccc(Oc2ccccc2)cc1 | resazurin |  | H37Rv | MIC bound | >6.25 µg/mL
CCc1nc2ncc(C)cn2c1C(=O)NCc1ccc(N2CCN(S(=O)(=O)C(F)(F)F)C(C3CC3)=N2)cc1 | GFP |  |  | EC50 | 0.0014 µM
Cc1ccc(/C=C/c2nc3ccc(Br)cc3[nH]2)cc1 | resazurin |  | H37Rv (ATCC 27294) | MIC | >7.25 µg/mL
Cc1cc(NC(=O)NC(=O)c2ccccc2N(C)C)ccc1Oc1ncc(Br)cn1 | BACTEC |  | H37Rv | MIC | 12.5 µg/mL
N#Cc1cc(SCc2cccc(Cl)c2)ccn1 |  |  | CNCTC MY331/88 | MIC | 61.66 µM
OC1c2ccccc2-c2ccccc2C1O | resazurin |  | H37Rv | MIC bound | >6.25 µg/mL
O=[N+]([O-])c1ccccc1CNCC1CCCC(CNCc2ccccc2[N+](=O)[O-])C1 |  | 20 µM | H37Rv | inhibition | 0%
Cc1ccc2occ(C=Cc3sc4ccccc4[n+]3Cc3ccccc3)c(=O)c2c1 |  |  | H37Rv | MIC | 125 µM
O=[N+]([O-])c1cccc(CNCC2CCCC(CNCc3cccc([N+](=O)[O-])c3)C2)c1 |  | 20 µM | H37Rv | inhibition | 0%
CCCCCCCCCCCCCCCCSc1ncnc2ccccc12 |  |  | CNCTC TBC1/47 | MIC | 500 µM
CCN(CC)CCn1c2ccccc2c(=O)c2c(O)ccc(O)c21 | resazurin |  | H37Rv | MIC bound | >6.25 µg/mL
C=CCN1C(=O)CS/C1=N\NC(=O)Cc1csc2nc(-c3ccc(Br)cc3)cn12 |  | 6.25 µg/mL | H37Rv | inhibition | 0%
CC(=O)N1N=C(C2=C(C)NC(=O)NC2c2ccccc2F)OC1c1ccccc1O | agar / visual reading | 250 µg/mL | H37Rv | inhibition | 69%
N#Cc1cc(SCc2cccc(Br)c2)ccn1 |  |  | CNCTC MY331/88 | MIC | 61.66 µM
COC1=CC2C(=NC(C)=C2C(=O)NCc2ccc(N3CCN(S(=O)(=O)C(F)(F)F)C(OC)=N3)cc2)N=C1 | GFP |  |  | EC50 | 0.01 µM
COc1ccccc1NC(=O)C(N=Nc1ccc(S(=O)(=O)Nc2nccs2)cc1)C(C)=O | resazurin |  | H37Rv | MIC bound | >6.25 µg/mL
CCCCNCc1ccc(OCCC)cc1 |  |  | H37Rv | MIC | 250 µg/mL
COc1ccc(CNCC2CCCC(CNCc3ccc(OC)cc3)C2)cc1 |  | 20 µM | H37Rv | inhibition | 0%
CO[C@H]1/C=C/O[C@@]2(C)Oc3c(C)c(O)c4c(O)c(c(/C=N/N=C/N5CCCC5)c(O)c4c3C2=O)NC(=O)/C(C)=C\C=C\[C@H](C)[C@H](O)[C@@H](C)[C@@H](O)[C@@H](C)[C@H](OC(C)=O)[C@@H]1C |  |  | H37Rv | MIC | 0.01 µg/mL
Cc1ccc2occ(C=Cc3sc4ccccc4[n+]3C)c(=O)c2c1 |  |  | H37Rv | MIC | 125 µM
O=C(Cc1csc2nc(-c3ccc(Br)cc3)cn12)N/N=C1\SCC(=O)N1c1ccc(Cl)cc1 |  |  | H37Rv | MIC | >6.25 µg/mL
CSC(=S)N/N=C/c1cccc(C)n1 |  |  | TAC-R | MIC | >12.8 µg/mL
CCCCNCNC1=CC(NCc2ccccc2)=CC1 |  |  | H37Rv | MIC | 250 µg/mL
CN1CSC(=S)N(C)C1 | BACTEC | 12.5 µg/mL | H37Rv | inhibition | 100%
CC(=O)N1N=C(C2=C(C)NC(=O)NC2c2ccccc2F)OC1c1ccccc1[N+](=O)[O-] | agar / visual reading | 250 µg/mL | H37Rv | inhibition | 56%
COC1(c2ccccc2)Oc2ccccc2C(=O)C1(O)C[N+](=O)[O-] | BACTEC |  | H37Rv | MIC | >4 µg/mL
CCc1nc2ncccn2c1C(=O)NCc1ccc(N2CCN(S(=O)(=O)C(F)(F)F)C=N2)cc1 | GFP |  |  | EC50 | 0.079 µM
Cc1cccc(CSc2ccnc(C#N)c2)c1 |  |  | CNCTC MY331/88 | MIC | 61.66 µM
COc1ccc(N=Nc2c(-c3c(OC)cc4occc4c3OC)[nH]c(=O)c(C#N)c2C)cc1 | resazurin |  | H37Rv | MIC bound | >6.25 µg/mL
c1ccc(CNCC2CCCC(CNCc3ccccc3)C2)cc1 |  | 20 µM | H37Rv | inhibition | 0%

Again, the opening 9 rows:

COC(=O)C1=COC(C)C2CN3CCc4c([nH]c5cc(OC)ccc45)C3CC12.ON(O)O ; read by: BACTEC ; tested at: 12.8 µg/mL ; strain or isolate: H37Rv ; read-out: inhibition ; result: 8%
CCCN(/C=N/N=C/c1c2c(O)c3c(O)c(C)c4c(c3c1O)C(=O)[C@@](C)(O/C=C/[C@H](OC)[C@@H](C)[C@@H](OC(C)=O)[C@H](C)[C@H](O)[C@H](C)[C@@H](O)[C@@H](C)/C=C/C=C(/C)C(=O)N2)O4)CCC ; strain or isolate: H37Rv ; read-out: MIC ; result: 0.02 µg/mL
C=CCNC(=S)NNC(=O)Cc1csc2nc(-c3ccc(Br)cc3)cn12 ; tested at: 6.25 µg/mL ; strain or isolate: H37Rv ; read-out: inhibition ; result: 2%
Nc1cc2nc3ccccc3nc2cc1N ; read by: BACTEC ; tested at: 12.5 µg/mL ; strain or isolate: H37Rv ; read-out: inhibition ; result: 89%
CC1=NN(c2ccc(CNC(=O)c3c(C(F)(F)F)nc4ccccn34)cc2)CCN1S(=O)(=O)C(F)(F)F ; read by: GFP ; read-out: EC50 ; result: 0.013 µM
CC1COc2c(N3CCN(C)CC3)c(F)cc3c(=O)c(C(=O)O)cn1c23 ; strain or isolate: 188 strains ; read-out: MIC50 ; result: 0.25 µg/mL
CC1(C)O[C@@H]1COc1c2occc2cc2ccc(=O)oc12 ; read by: BACTEC ; tested at: 12.5 µg/mL ; strain or isolate: H37Rv ; read-out: inhibition ; result: -12%
CCCCNC(=S)NNC(=O)Cc1csc2nc(-c3ccc(Br)cc3)cn12 ; strain or isolate: H37Rv ; read-out: MIC ; result: >6.25 µg/mL
C=CC[N+]12CC=C3COC(=O)C(C)(O)C(C)(O)C(C)C(=O)OC(CC1)C32.[Br-] ; read by: BACTEC ; strain or isolate: H37Rv ; read-out: MIC ; result: ≥12.5 µg/mL

MIC50, MIC90 and the like: level of inhibition, or share of isolates inhibited. Blank or dashed fields: not listed here. Rows are shuffled and stem from different studies. ECn is the concentration giving n% inhibition of infection, replication or growth. Percent inhibition refers to the dose given; in toxicity tests it is the harm to the cells.